Reference: PubChem BioAssay AID504761 (Drosophila RNAi Screening Center, 2011)

- Aim: 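Insect host genes that dengue virus relies on to spread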 (primary screen)
- Cell system: D.Mel-2 cells from Drosophila
- Knock-down reagent: long dsRNA against Drosophila genes
- Conditions: infection with dengue virus type 2; dose and infection time not stated
- Measured: 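Cells stained for dengue envelope protein and imaged; percent of infected cells per well on duplicate plates, ranked by infection, with stained nuclei counted for cell number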
- Direction: infection score: higher = more virus-infected cells; cell count: higher = more cells in the well
- Rule for the call: 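Very low infection ranking in both replicate wells (chance probability at most 0.065), then a retest showing infection dropped 1.5-fold or more at p below 0.05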
- Meaning of the calls: active = confirmed: knock-down lowers infection; inactive = not picked or not confirmed
In all, the deposit lists about 22,000 reagents; shown is an unselected part of those with a known target gene and a result. Over the whole deposit, 116 (0.52%) are marked active. 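Calls depend on retest data that are not deposited; infection was ranked per plate without normalising between plates; the unit of the infection score is not given.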 Raw values vary from plate to plate and are shown uncorrected. A number with no mark means an inactive call. Names joined by + are all predicted targets of the reagent. Not given: the amount of reagent, the time to read-out.

| target gene | dsRNA | infection score, replicate 1 | infection score, replicate 2 | cell count, replicate 1 | cell count, replicate 2 |
| --- | --- | --- | --- | --- | --- |
| Phf7 | DRSC23523 | 15.2 | 5.24 | 6628 | 6222 |
| CG5746 | DRSC15868 | 2.5 | 2.43 | 6077 | 5642 |
| CG5746 | DRSC25452 | 8.64 | 6.35 | 6329 | 5305 |
| CG13738 | DRSC10065 | 1.69 | 10.3 | 5734 | 5838 |
| CG13738 | DRSC23534 | 8.01 | 2.86 | 5603 | 5487 |
| Mal-A6 | DRSC07233 | 16.3 | 10.2 | 5605 | 6704 |
| Mal-A6 | DRSC27167 | 14.3 | 22.4 | 4513 | 6480 |
| Or98P | DRSC22948 | 3.5 | 0.43 | 6487 | 6531 |
| Or98P | DRSC25899 | 1.36 | 1.49 | 6315 | 6635 |
| Prosalpha1R + Prosalpha1 | DRSC07515 | – | 12.1 | 530 | 1804 |
| Prosalpha1R + Prosalpha1 | DRSC29087 | 0.97 | 20 | 932 | 6195 |
| PIG-B | DRSC08216 | 9.14 | 13.1 | 4902 | 6500 |
| PIG-B | DRSC22598 | 16.6 | 20.4 | 2487 | 5468 |
| CG15201 | DRSC19648 | 14.8 | 14.1 | 5982 | 6537 |
| Su(var)3-9 | DRSC14484 | 6.67 | 32.4 | 6817 | 5571 |
| Su(var)3-9 | DRSC29176 | 20.1 | 9.77 | 5761 | 5617 |
| Tep3 | DRSC03452 | 5.66 | 6.2 | 6574 | 6403 |
| Pez | DRSC03397 | 11 | 4.52 | 5678 | 6764 |
| Pez | DRSC27921 | 26.6 | 10.1 | 6436 | 6344 |
| Cap-D3 + tomb | DRSC02347 | 1.25 | 2.85 | 6584 | 6656 |
| eIF3d2 | DRSC15651 | 13.5 | 17.6 | 6384 | 6707 |
| RpL8 | DRSC08532 | 4.81 | 4.47 | 1995 | 1499 |
| RpL8 | DRSC08695 | 3.42 | 5.24 | 2048 | 1298 |
| RpL8 | DRSC29905 | 15.2 | 8.92 | 1947 | 2343 |
| Nup133 | DRSC16150 | 17.7 | 21 | 3746 | 4012 |
| CG6059 | DRSC15958 | 3.03 | 7.15 | 6987 | 6367 |
| Gr64b | DRSC08444 | 2.81 | 12.6 | 6151 | 5877 |
| nht | DRSC01976 | 1.6 | 5.98 | 6610 | 6825 |
| Dh31 | DRSC02196 | 5.68 | 6.6 | 6641 | 6231 |
| CG5693 | DRSC02878 | 4.29 | 7.6 | 6031 | 6121 |
| ben | DRSC20310 | 4.52 | 12.2 | 5489 | 5476 |
| ben | DRSC21261 | 7.56 | 5.12 | 6220 | 6189 |
| ben | DRSC29133 | – | – | 246 | 319 |
| GATAe | DRSC23209 | 4.52 | 21.2 | 6545 | 6906 |
| CG15370 | DRSC23277 | 1.56 | 5.18 | 6480 | 6311 |
| CG15370 | DRSC29703 | 12.9 | 4.54 | 6120 | 6341 |
| squ | DRSC01549 | 6.23 | 3.21 | 5766 | 5885 |
| CG4806 | DRSC04491 | 12.8 | 6.53 | 6243 | 6386 |
| kek1 | DRSC03551 | 25.4 | 12.3 | 5145 | 5437 |
| CG2065 | DRSC06813 | 13.8 | 7.72 | 5742 | 6980 |
| CG2065 | DRSC21328 | 5.38 | 1.45 | 6490 | 6823 |
| CG2065 | DRSC29164 | 14.3 | 21.2 | 1303 | 5615 |
| CG1986 | DRSC18197 | 5.31 | 3.03 | 6028 | 6539 |
| CG1986 | DRSC27916 | 13.9 | 3.87 | 6252 | 7054 |
| l(1)G0320 | DRSC18255 | 3.39 | 7.39 | 6988 | 6669 |
| CG5131 | DRSC02817 | 2.18 | 6.11 | 733 | 7038 |
| t-Grip84 | DRSC10904 | 3.58 | 1.41 | 6473 | 6255 |
| CG5550 | DRSC06943 | 8.9 | 11.8 | 7064 | 6873 |
| CG5550 | DRSC29735 | 12.9 | 4.46 | 6688 | 6302 |
| tap | DRSC11402 | 5.02 | 4.4 | 6420 | 6364 |
| CG13627 | DRSC14629 | 3.41 | 11.8 | 6546 | 5227 |
| CG8620 | DRSC11020 | 4.65 | 11.9 | 6297 | 5874 |
| CG8620 | DRSC25632 | 6.68 | 5.72 | 5885 | 6089 |
| CG7778 | DRSC03067 | 3.88 | 1.87 | 6233 | 6429 |
| CG7778 | DRSC27313 | 15.9 | 12.8 | 5812 | 3908 |
| Alg-2 | DRSC07799 | 3.71 | 2.45 | 5851 | 6278 |
| CG4577 | DRSC00658 | 2.01 | 2.66 | 6522 | 6242 |
| uif | DRSC03427 | – | 5.67 | 706 | 2275 |

5 neighbouring reagents from above, for reference:
| target gene | dsRNA | infection score, replicate 1 | infection score, replicate 2 | cell count, replicate 1 | cell count, replicate 2 |
| --- | --- | --- | --- | --- | --- |
| CG15370 | DRSC29703 | 12.9 | 4.54 | 6120 | 6341 |
| squ | DRSC01549 | 6.23 | 3.21 | 5766 | 5885 |
| CG4806 | DRSC04491 | 12.8 | 6.53 | 6243 | 6386 |
| kek1 | DRSC03551 | 25.4 | 12.3 | 5145 | 5437 |
| CG2065 | DRSC06813 | 13.8 | 7.72 | 5742 | 6980 |
